Data taken from patent publication US7691382B2 (priority 2003, dated 2010).
Where a sequence shows no end group, the ends are not given.

Test: peptide made by a vendor
Details: whole synthesis, scale 5 micromole

WRKWRKRWWWRKWRKRWW
final HPLC purity: >95%
